Assay [1] relates to Mycobacterium avium. Nature of the assay: Antimycobacterial activity against Mycobacterium avium CNCTC My 330/88 after 21 days by micromethod. The class given is functional.
The test system of assay [2] is Mycobacterium avium. Nature of the assay: Antimycobacterial activity against Mycobacterium avium CNCTC My 330/88 after 14 days by micromethod. The class given is functional.

In brackets after ≈: the same amount, converted by molar mass.

In the case of `O=[N+]([O-])c1ccc(CSc2nnc(-c3cc([N+](=O)[O-])cc([N+](=O)[O-])c3)o2)cc1`, the MIC with Mycobacterium avium [1] and against Mycobacterium avium [2] was 2 µM (≈ 0.807 µg/mL) in each case.
Consider `NNC(=O)c1cc([N+](=O)[O-])cc([N+](=O)[O-])c1`, for which the MIC with Mycobacterium avium [1] came out at 250 µM (≈ 56.5 µg/mL); in the assay on Mycobacterium avium [2] it was 125 µM (≈ 28.3 µg/mL).
